A mixed list of measured activities; the numbers were collected in NIAID ChemDB.

Shared fields: tests in culture; organism: Herpes simplex virus 2; read by: plaque count; endpoint: EC50

Lines come from different laboratories, so protocols vary. ECn is the concentration giving n% inhibition of infection, replication or growth. Blank or dashed fields: not listed here.

structure,strain,cell line,result
O=c1[nH]c(=O)n([C@@H]2O[C@H](CO)[C@@H](O)[C@@H]2O)cc1/C=C/I,HG-52,HELF,18 µg/mL
Cc1cn([C@@H]2O[C@H](CO)[C@@H](O)[C@@H]2F)c(=O)[nH]c1=O,G-FIAU-C1,VERO,9.2 µM
O=c1[nH]c(=O)n([C@H]2C[C@H](O)[C@@H](CO)O2)cc1I,UW-268,HELF,6.1 µg/mL
O=C(NCc1ccc(Cl)cc1)c1cn2c3c(cc(CN4CCOCC4)cc3c1=O)OC(c1cccnc1)C2,11680 (ACV-resistant),HFF,7.5 µM
Nc1nc2c(ncn2CCC(CO)CO)c(=O)[nH]1,UW-268,MRC-5,2.2 µg/mL
Cn1cc(C(=O)NCc2ccc(Cl)cc2)c(=O)c2cc(CN3CCOCC3)ccc21,MS-M1,VERO,>20 µM
Nc1nc2c(ncn2COCCO)c(=O)[nH]1,SR,HFF,0.6 µg/mL
O=C(O)P(=O)(O)O,G-FIAC-C1,VERO,66 µM
Nc1ncnc2c1ncn2[C@@H]1O[C@H](COP(=O)(O)O)[C@@H](O)[C@@H]1O,X-79,MEF,29 µM
Cc1cn([C@@H]2O[C@H](CO)[C@H]2CO)c(=O)[nH]c1=O,X-79,HFF,1 µg/mL
O=c1ccn([C@@H]2O[C@H](CO)[C@@H](O)[C@@H]2F)c(=O)[nH]1,G-FAC-C1,VERO,140 µM
Cc1cn([C@@H]2O[C@H](CO)[C@@H](O)[C@@H]2O)c(=O)[nH]c1=O,MS,VERO,6.6 µM
c1ccn2cc(-c3cncs3)cc2c1,186,VERO,>100 µM
O=c1[nH]c(=O)n([C@@H]2O[C@H](CO)[C@@H](O)[C@@H]2F)cc1I,G-FAU-C2,VERO,29 µM
Nc1nc2c(ncn2COCCO)c(=O)[nH]1,MS,VERO,2.4 µM
Nc1nc2c(ncn2COCCO)c(=O)[nH]1,B4327,VERO,0.5 µM
O=c1[nH]c(=O)n([C@H]2C[C@H](O)[C@@H](CO)O2)cc1I,MS,VERO,5 µM
COc1ccc2nc3n[nH]c(C)c3c(SCc3ccco3)c2c1,,VERO,1.5 µg/mL
CCCCCCCCCCCCOCCCOP(=O)(O)CO[C@H](CO)Cn1ccc(N)nc1=O,MS,HFF,0.3 µM
c1ccn2cc(-c3ccsc3)cc2c1,186,VERO,>100 µM
CCCCCCCCCCCCCCCCCOC[C@H](COP1(=O)CO[C@@H](Cn2ccc(N)nc2=O)CO1)OCc1ccccc1,G,HFF,>1 µM
Nc1nc2c(ncn2CCCC(CO)CO)c(=O)[nH]1,91075,SIRC,1.4 µM
CCCCCCCCCCCCCCCCCCOC[C@H](COP(=O)(O)CO[C@H](CO)Cn1ccc(N)nc1=O)OCc1ccccc1,G,HFF,0.07 µM
O=C(O)P(=O)(O)O,E-196,MEF,20.5 µg/mL
O=c1[nH]c(=O)n([C@H]2C[C@H](O)[C@@H](CO)O2)cc1/C=C/Br,UW-268,HELF,15 µg/mL
Nc1nc2c(ncn2COC(CO)CO)c(=O)[nH]1,G,VERO,0.3 µM
CC(=O)OC[C@H]1[C@H](COC(C)=O)[C@@H](COC(C)=O)O[C@H]1n1cnc2c(N)ncnc21,X-79,MEF,172 µM
CCCCCCCC/C=C\CCCCCCCOCCCOP(=O)(O)CO[C@H](CO)Cn1ccc(N)nc1=O,G,HFF,0.09 µM
Cc1cn([C@@H]2O[C@H](CO)[C@@H](O)[C@@H]2F)c(=O)[nH]c1=O,HG-52,VERO,0.09 µM
CCCCCCCCCCCCCCCCOP1(=O)CO[C@@H](Cn2ccc(N)nc2=O)CO1,G,HFF,>1 µM
Nc1nc2c(ncn2CC[C@H](O)CO)c(=O)[nH]1,91075,VERO,20 µM
Nc1nc2c(ncn2CC[C@@H](O)CO)c(=O)[nH]1,91075,SIRC,0.9 µM
Cn1cc(C(=O)NCc2ccc(Cl)cc2)c(=O)c2cc(CN3CCOCC3)ccc21,G (WILD TYPE),HFF,7.5 µM
c1ccc(-c2cc3ccccn3c2)cc1,186,VERO,>100 µM
Nc1ccn(C[C@H]2COP(=O)(O)CO2)c(=O)n1,MS,HFF,17.22 µM
Nc1nc(=O)n([C@@H]2O[C@H](CO)[C@@H](O)[C@@H]2F)cc1I,UW-268,HELF,0.011 µg/mL
c1ccn2cc(-c3ccoc3)cc2c1,186,VERO,>100 µM
Nc1ncnc2c1ncn2[C@@H]1C[C@H](CO)[C@@H](O)[C@@H]1O,G-FAC-C1,VERO,48 µM

For reference, 5 entries again:

structure	strain	cell line	result
c1ccn2cc(-c3ccsc3)cc2c1	186	VERO	>100 µM
CCCCCCCCCCCCCCCCCCOC[C@H](COP(=O)(O)CO[C@H](CO)Cn1ccc(N)nc1=O)OCc1ccccc1	G	HFF	0.07 µM
Nc1ncnc2c1ncn2[C@@H]1O[C@H](COP(=O)(O)O)[C@@H](O)[C@@H]1O	X-79	MEF	29 µM
O=c1[nH]c(=O)n([C@H]2C[C@H](O)[C@@H](CO)O2)cc1I	MS	VERO	5 µM
O=c1[nH]c(=O)n([C@@H]2O[C@H](CO)[C@@H](O)[C@@H]2F)cc1I	G-FAU-C2	VERO	29 µM